{
  "source": "patent US9234885B2",
  "about": "(priority 2011, dated 2016)",
  "system": "rVSV-GP-EboV",
  "assay": "rVSV-GP-EboV infectivity in Vero cells",
  "format": "cell-based, Ebola virus",
  "settings": "post-infection, time-of-escape experiment",
  "data": [
    {"smiles": "CCN(CC)CCO[C@H]1CC[C@@]2(C)C(=CC[C@@H]3[C@@H]2CC[C@]2(C)C(=O)CC[C@@H]32)C1", "note": "[U18666A, 3-β-[2-(diethylamino)ethoxy]androst-5-en-17-one]", "values": [
      {"measurement": "time by which sensitivity of viral infection to the drug is lost", "value": 2, "unit": "h"}
    ]}
  ]
}
